doi:10.1101/2020.11.06.371997

Molecular target: T1, Trf2ΔN-FG3 (UmTrf2) (Ustilago maydis) (UniProt A0A0D1E1Z3)
T1 sequence (looked up): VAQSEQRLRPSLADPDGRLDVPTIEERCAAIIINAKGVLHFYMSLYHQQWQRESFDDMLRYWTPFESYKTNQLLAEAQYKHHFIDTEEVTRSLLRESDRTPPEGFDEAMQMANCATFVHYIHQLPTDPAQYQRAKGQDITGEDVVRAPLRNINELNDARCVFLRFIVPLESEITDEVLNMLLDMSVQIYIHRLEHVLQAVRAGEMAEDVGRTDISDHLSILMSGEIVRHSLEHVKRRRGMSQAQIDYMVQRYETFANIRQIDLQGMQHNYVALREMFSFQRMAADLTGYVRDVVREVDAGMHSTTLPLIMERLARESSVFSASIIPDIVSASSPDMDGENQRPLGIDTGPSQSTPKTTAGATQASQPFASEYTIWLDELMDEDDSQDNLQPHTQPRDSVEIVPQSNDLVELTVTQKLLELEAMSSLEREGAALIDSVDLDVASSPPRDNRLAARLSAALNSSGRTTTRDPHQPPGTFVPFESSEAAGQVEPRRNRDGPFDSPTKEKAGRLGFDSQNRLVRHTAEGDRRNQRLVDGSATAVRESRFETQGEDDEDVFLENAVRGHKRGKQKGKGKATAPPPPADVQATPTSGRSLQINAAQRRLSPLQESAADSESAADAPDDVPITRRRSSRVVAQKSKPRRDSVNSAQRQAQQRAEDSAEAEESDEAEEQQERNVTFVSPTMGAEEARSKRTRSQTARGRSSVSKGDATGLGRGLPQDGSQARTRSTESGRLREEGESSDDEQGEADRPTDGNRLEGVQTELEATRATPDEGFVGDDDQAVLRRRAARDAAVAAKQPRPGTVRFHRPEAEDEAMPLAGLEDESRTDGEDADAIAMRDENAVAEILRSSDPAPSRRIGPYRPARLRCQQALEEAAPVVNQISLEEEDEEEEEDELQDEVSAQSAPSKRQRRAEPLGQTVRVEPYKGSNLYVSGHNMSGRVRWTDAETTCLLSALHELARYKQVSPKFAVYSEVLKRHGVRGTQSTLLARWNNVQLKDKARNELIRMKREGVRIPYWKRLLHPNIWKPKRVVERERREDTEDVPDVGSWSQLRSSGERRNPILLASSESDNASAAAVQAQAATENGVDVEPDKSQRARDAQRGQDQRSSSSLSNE
Test: competition with a labelled probe
Conditions: unlabeled competitor, residues 415-1528

Question: Does “TTAGTCAGGGTTAGTCAGGGTTAGT (double strand) [Yl TEL duplex]” bind (prefers canonical repeat)?
Answer: binds

Question: Does “TTAGGGTTAGGGTTAGGGTTAGGG (double strand) [TTAGGG4 duplex]” bind?
Answer: binds

The exact form of at least one protein or probe is not confirmed. At least one verdict was read from the data and is not stated in words by the source. Where a protein sequence is shown, tags need not be part of it.
